Results of unrelated studies side by side (data: NIAID ChemDB).

All rows: host cell toxicity; cells: MT-2; measure: CC50

Neighbouring rows are from separate reports.

SMILES	value
CCCCCOc1nc(N)nc2c1ncn2[C@H]1C=C[C@@H](CO)C1	>100 µM
CSCC[C@H](N)C(=O)N[C@@H](CC(C)C)C(=O)N[C@@H](Cc1ccccc1)C(=O)N[C@H](C(=O)N[C@@H](Cc1ccccc1)C(=O)N1CCC[C@H]1C(=O)O)C(C)C	1.77 µg/mL
C=CSC(NC(=O)[C@H](Cc1ccccc1)NS(=O)(=O)N1CCOCC1)C(=O)N[C@@H](CC1CCCCC1)[C@@H](O)C[C@H](C(=O)NCCCC)C(C)C	<13 µM
Cc1cn(CCC[Si](C)(O)c2ccccc2)c(=O)[nH]c1=O	50 µM
Cc1ccc(C(C)S(=O)(=O)c2c(C)ccc[n+]2[O-])c(C)c1	>100 µg/mL
N#Cc1cc(Cl)cc(Oc2cc(Cl)ccc2OCCn2ccc(=O)[nH]c2=O)c1	32 µM
Cc1cn([C@H]2C=C[C@@](C#N)(CO)O2)c(=O)[nH]c1=O	>100 µM
N#Cc1cc(Cl)cc(Oc2ccc(Cl)cc2OCCn2ccc(=O)[nH]c2=O)c1	>100 µM
Cc1nc2sc3c(c2c(-c2ccc(N(C)C)nc2)c1C(OC(C)(C)C)C(=O)O)CCCC3	>20 µM
Nc1nc2c(ncn2[C@H]2C=C[C@@H](CO)C2)c(=O)[nH]1	41.8 µg/mL
O=[N+]([O-])c1ccc[n+]([O-])c1SCc1ccccc1	21 µg/mL
Nc1nc(=O)n([C@@H]2C=C[C@H](CO)O2)cc1F	>100 µM
COC1CCN(C(=O)[C@@H](NC(=O)[C@H](Cc2ccccc2)NC(=O)[C@H](CC(C)C)NC(=O)[C@@H](N)CCSC)C(C)C)[C@@H]1C(=O)N1CCC[C@H]1C(=O)O	29.38 µg/mL
COc1ccc(C[C@H](C[C@H](O)[C@H](Cc2ccccc2)NC(=O)OC(C)(C)C)C(=O)N[C@H](C(=O)N[C@@H](Cc2ccccc2)C(=O)N2CCOCC2)C(C)C)cc1	>100 µM
Cc1ccc(-c2c([C@H](OC(C)(C)C)C(=O)O)c(C)nc3sc4c(c23)CCCC4)c(F)c1	>20 µM
O=C(O)c1ccc(-c2c3nc(c(-c4ccc(C(=O)O)cc4)c4ccc([nH]4)c(-c4ccc(C(=O)O)cc4)c4nc(c(-c5ccc(C(=O)O)cc5)c5ccc2[nH]5)C=C4)C=C3)cc1	30.9 µg/mL
N#Cc1ccc(Nc2nccc(C3CC3)n2)cc1Sc1ccccc1	0.039 µM
Cc1nn([C@H]2CO[C@H](CO)O2)c(=O)[nH]c1=O	>100 µM
O=P(CCP(c1ccccc1)c1ccccc1)(c1ccccc1)c1ccccc1	5.97 µg/mL
Cc1cn([C@H]2C=C[C@@H](CO)O2)c(=O)[nH]c1=S	>80 µM
Cc1cn([C@H]2C[C@H](CF)[C@@H](CO)O2)c(=O)[nH]c1=O	>100 µM
CSCC[C@H](N)C(=O)N[C@@H](CC(C)C)C(=O)N[C@@H](Cc1ccccc1)C(=O)N[C@H](C(=O)N[C@@H](Cc1ccccc1)C(=O)N1CCC[C@H]1C(=O)N[C@@H](CC(N)=O)C(=O)O)C(C)C	57.34 µg/mL
Nc1nc(Cl)c2ncn([C@H]3CC[C@@H](CO)C3)c2n1	>100 µg/mL
C=Cc1c(C)c2cc3[nH]c(cc4nc(cc5nc(cc1[nH]2)C(C)=C5CCC(=O)O)C(CCC(=O)O)=C4C)c(C)c3C=C	8.9 µg/mL
Cc1ccc(C)c(CSc2c(Cl)ccc[n+]2[O-])c1	16 µg/mL
CNc1ccccc1C(=O)NCCC[Si](C)(C)O[Si](C)(C)CCCNC(=O)c1ccccc1NC	12 µM
N#C/C=C/c1cccc(Oc2cc(Nc3ncnc(C4CC4)n3)ccc2C#N)c1	1.8 µM
O=C(O[C@@H]1Cc2c(O)cc(O)cc2O[C@@H]1c1cc(O)c(=O)c2c(O)c(O)cc([C@H]3Oc4cc(O)cc(O)c4C[C@H]3OC(=O)c3cc(O)c(O)c(O)c3)c2c1)c1cc(O)c(O)c(O)c1	>200 µM
COc1ccc([C@@H]2CC(=O)c3c(O)cc(O[C@@H]4O[C@H](CO[C@@H]5O[C@@H](C)[C@H](OP(=O)(O)O)[C@@H](OP(=O)(O)O)[C@H]5O)[C@@H](OP(=O)(O)O)[C@H](OP(=O)(O)O)[C@H]4O)cc3O2)cc1O	>500 µg/mL
C=CC1=C(C)C2=NC1=CC1=NC(=CC3=C(C)C(=C([O-])[O-])C(=N3)C(CC(=O)O)=C3NC(=C2)C(C)C3CCC(=O)O)C(CC)=C1C.[Mg+2]	77 µg/mL
Cc1nc2sc3c(c2c(-c2cnc4ccoc4c2)c1C(OC(C)(C)C)C(=O)O)CCCC3	>20 µM
O=C(N/C(C(=O)N1CCCCC1)=C(/Cl)c1ccccc1)c1ccccc1	>81 µM
C=Cc1c(C)c2cc3[nH]c(cc4nc(cc5nc(cc1[nH]2)C(C)=C5CCC(=O)O)C(CCC(=O)O)=C4C)c(C)c3C=C	8.9 µg/mL
Cc1cn([C@H]2CC[C@@H](CO)S2)c(=O)[nH]c1=O	>100 µg/mL
O=c1c(O)cc([C@H]2Oc3cc(O)cc(O)c3C[C@H]2O)cc2c([C@H]3Oc4cc(O)cc(O)c4C[C@H]3O)cc(O)c(O)c12	177.8 µM
Cc1cn([C@@H]2O[C@H](CO)[C@@H](CF)[C@@H]2O)c(=O)[nH]c1=O	>100 µM
Cc1cc(/C=C/C#N)cc(Oc2cc(Nc3ncnc(C4CC4)n3)ccc2C#N)c1	1.5 µM
CC(C)=CCOc1cc(NC(=S)c2ccoc2C)ccc1Cl	>30 µM
OC[C@@H]1CC[C@H](n2cnc3c(Cl)ncnc32)S1	>21 µg/mL
Cc1cn([C@H]2CC[C@@H](COC(=O)c3ccccc3)O2)c(=O)[nH]c1=O	>625 µM
CCOC(C(=O)O)c1c(C)nc2sc3c(c2c1-c1ccc2nsnc2c1)CCCC3	>20 µM
Cc1ccc(C)c(CS(=O)(=O)c2ccccn2)c1	28 µg/mL
Cc1cn([C@@H]2O[C@H](CO)[C@@H](CN=[N+]=[N-])[C@H]2O)c(=O)[nH]c1=O	>100 µM
COC1CCN(C(=O)[C@H](CC(C)C)NC(=O)[C@@H](N)CCSC)[C@@H]1C(=O)N[C@H](C(=O)N[C@@H](Cc1ccccc1)C(=O)N1CCC[C@H]1C(=O)O)C(C)C	18.65 µg/mL
Nc1ncnc2c1ncn2[C@H]1CC[C@@H](CO)S1	>100 µg/mL
COc1ccc(CSCC2(CSCc3ccc(OC)cc3)NC(=O)NC2=O)cc1	>6 µM
N#C/C=C/c1cccc(Oc2cc(Nc3nccc(C4CC4)n3)ccc2C#N)c1	1.1 µM
C=Cc1c(C)c2cc3nc(cc4[nH]c(cc5nc(cc1[nH]2)C(C)=C5CO)c(C)c4CCC(=O)O)C(CCC(=O)O)=C3C	31 µg/mL
Nc1ncn([C@H]2CO[C@H](CO)O2)c(=O)n1	18 µM
C[Si](C)(CCCSc1ncccn1)O[Si](C)(C)CCCSc1ncccn1	43 µM
Nc1nc2c(ncn2[C@H]2C=C[C@@H](CO)C2)c(=O)[nH]1	41.8 µg/mL
C[Si](O)(CCCn1cnc2c(N)ncnc21)c1ccccc1	12 µM
COC(=O)c1ccc(CSCC2(CSCc3ccc(C(=O)OC)cc3)NC(=O)NC2=O)cc1	>10 µM
Cc1c(-c2c([C@H](OC(C)(C)C)C(=O)O)cnc3ccccc23)cc(F)c2c1CCCO2	76 µM
CC[C@H](C)[C@H](NC(=O)c1ccccc1SSc1ccccc1C(=O)N[C@H](C(=O)O)[C@@H](C)CC)C(=O)O	168 µM
O=C1NC(=O)C(CSCc2cccs2)(CSCc2cccs2)N1	>17 µM
C1=Cc2nc1c(-c1ccccc1)c1ccc([nH]1)c(-c1ccccc1)c1nc(c(-c3ccccc3)c3ccc([nH]3)c2-c2ccccc2)C=C1	>80 µg/mL
Nc1ncn([C@@H]2CO[C@H](CO)O2)c(=O)n1	17 µM
CC(C)C[C@H](NC(=O)[C@@H](N)CCC(N)=O)C(=O)N[C@@H](Cc1ccccc1)C(=O)N[C@H](C(=O)N[C@@H](Cc1ccccc1)C(=O)N1CCC[C@H]1C(=O)O)C(C)C	10.54 µg/mL
O=C(O[C@@H]1Cc2c(O)cc(O)cc2O[C@@H]1c1cc(O)c(O)c(O)c1)c1cc(O)c(O)c(O)c1	191.6 µM
N#C/C=C/c1cc(Cl)cc(Oc2ccccc2OCCn2ccc(=O)[nH]c2=O)c1	11 µM
O=S(=O)(O)c1ccc(-c2c3nc(c(-c4ccc(S(=O)(=O)O)cc4)c4ccc([nH]4)c(-c4ccc(S(=O)(=O)O)cc4)c4nc(c(-c5ccc(S(=O)(=O)O)cc5)c5ccc2[nH]5)C=C4)C=C3)cc1	21 µg/mL
CCOc1nc(N)nc2c1ncn2[C@H]1C=C[C@@H](CO)C1	>100 µM
Cc1nc2sc3c(c2c(-c2cnc4cc[nH]c4c2)c1C(OC(C)(C)C)C(=O)O)CCCC3	>20 µM
Cc1cccc(CS(=O)(=O)c2cccc[n+]2[O-])c1	26 µg/mL
Nc1nc(N)c2ncn([C@H]3C=C[C@@H](CO)C3)c2n1	>125 µg/mL
CCCOc1nc(N)nc2c1ncn2[C@@H]1C=C[C@H](CO)C1	98 µM
CCCCOc1nc(N)nc2c1ncn2[C@H]1C=C[C@@H](CO)C1	>100 µM
CC(=O)OCC1OC(SC2C(OC(C)=O)OC(COC(C)=O)C(OC(C)=O)C2OC(C)=O)C(OC(C)=O)C(OC(C)=O)C1OC(C)=O	>100 µg/mL
O=C1NC(=O)C(CSCc2ccc(Br)cc2)(CSCc2ccc(Br)cc2)N1	>7 µM

CCn: concentration that lowers growth or viability of the cells by n%.